What all share (assay): Broth microdilution growth inhibition, Hsp90 variant yeast
Common to all, as to type: cell-based, Saccharomyces cerevisiae
For orientation: In broth dilution the organism is exposed to a series of concentrations in liquid medium.

Experiment [1] deals with S. cerevisiae expressing C. albicans Hsp90 Leu130Ala/Phe131Tyr. An excerpt:
(§1) We tested their importance by generating three C. albicans Hsp90 variants with the native fungal residues changed to their corresponding human residues (Fig. 5a, b). The first variant was a single substitution, replacing fungal threonine with human glutamine at position 12 (Thr12Gln) located between the N-terminal β-strand and α-helix. […] The second variant involved two amino acid changes within α-helix 7 (Leu130Ala and Phe131Tyr) which were predicted to impact contact with the para-methoxybenzyl substituent.
(§2) Antifungal tolerance and resistance were determined in flat bottom, 96-well microtiter plates using a modified broth microdilution protocol as described[8],[10]. All Hsp90 inhibitors were formulated in dimethyl sulfoxide (DMSO, Sigma Aldrich Co.); fluconazole was dissolved in sterile ddH2O. Each strain was tested in duplicate on at least two occasions. […] To test for fungicidal activity, cultures from MIC plates were spotted on YPD agar plates using a spotter (Frogger, V&P Scientific, Inc). Plates were photographed after 48 h of incubations at 30 °C.

For experiment [2], the system named is S. cerevisiae expressing C. albicans Hsp90 Lys158Ser/Thr162Arg.
Text: as §1, §2

In experiment [3] the test system is S. cerevisiae expressing C. albicans Hsp90 Thr12Gln.
Text: as §1, §2

The structures appear in SMILES notation.

For the compound `C[C@@H]1C[C@H]2O[C@@H]2/C=C\C=C\C(=O)Cc2c(Cl)c(O)cc(O)c2C(=O)O1` [radicicol, reference compound], the figures for the “change of potency relative to wild-type C. albicans Hsp90” value in experiment [1], in experiment [2] and in experiment [3] were “increased potency”, “did not alter the potency” and “did not alter the potency”, respectively.

Values taken from article PMC6345968, “Structural basis for species-selective targeting of Hsp90 in a pathogenic fungus” (Nature Communications, 2019).
